Pooled drug test results. Numbers come from NIAID ChemDB, via PubChem.

All rows: tests in culture; species: Rhinovirus; measure: EC50

Neighbouring rows are from separate reports.

SMILES,strain,cells,method,result
COc1ccc(Cn2cnc3c(N(C)C)nc(C(F)(F)F)nc32)cc1C,Serotype 1B,M-HELA,plaque count,0.2 µM
CCOC(=O)c1ccc(OCCCOc2ccc(-c3snc(SC)c3C#N)cc2)cc1,Serotype 39 (group B),HELA-OHIO,cytopathic effect,0.5 µM
CCn1c(-c2cccc(F)c2)c(C)c(=O)c2cc(C(C)C)ccc21,TYPE 89/41617-GALLO,HELA-OHIO,cytopathic effect,0.38 µg/mL
CN(C)c1nc(C(F)(F)F)nc2c1ncn2Cc1ccc(Cl)c(Cl)c1,Serotype 21,M-HELA,plaque count,>8 µM
CCOC(=O)c1ccc(OCCC2CCN(c3ccc(C)nn3)CC2)cc1,Serotype 86 (group A),HELA-OHIO,cytopathic effect,0.087 µM
CCN(c1cccc(F)c1)c1nc(C(F)(F)F)nc2c1ncn2Cc1cccc(F)c1,Serotype 1B,M-HELA,plaque count,17 µM
CSc1nsc(-c2ccc(OCCCOc3ccc([N+](=O)[O-])cc3)cc2)c1C#N,Serotype 63 (group B),HELA-OHIO,cytopathic effect,>1 µM
Cc1c(-c2ccccc2)n(-c2ccc(F)cc2)c2ccc(C(C)C)cc2c1=O,16/11757,HELA-OHIO,cytopathic effect,0.033 µg/mL
CSc1nsc(-c2ccc(OCCCCOc3ccc(C#N)cc3)cc2)c1C#N,Serotype 14 (group A),HELA-OHIO,cytopathic effect,>2 µM
Fc1cccc(Cn2cnc3c(Nc4cccc(F)c4)nc(C(F)(F)F)nc32)c1,Serotype 53,M-HELA,plaque count,6.6 µM
CN(C)c1nc(C(F)(F)F)nc2c1ncn2Cc1ccccc1Cl,Serotype 19,M-HELA,plaque count,>8 µM
CSc1nsc(-c2ccc(OCCCOc3ccc(C#N)cc3)cc2)c1C#N,Serotype 29 (group B),HELA-OHIO,cytopathic effect,>2 µM
Cc1cc(CCCOc2c(C)cc(-c3noc(C(F)(F)F)n3)cc2C)on1,Isolate 23,OHIO HELA-I,cytopathic effect / visual reading,<0.01 µg/mL
Cc1c(-c2ccccc2)n(-c2cccc(F)c2)c2ccc(C(C)C)cc2c1=O,TYPE 2,HELA-OHIO,cytopathic effect,0.03 µg/mL
CSc1nsc(-c2ccc(OCc3ccccc3)cc2)c1C#N,Serotype 41 (group B),HELA-OHIO,cytopathic effect,32 µM
CN(C)c1nc(C(F)(F)F)nc2c1ncn2Cc1ccc(Cl)c(NC=O)c1,Serotype 19,M-HELA,plaque count,>8 µM
CCO/N=C/c1ccc(OCCC2CCN(c3ccc(Cl)nn3)CC2)cc1,Norman (ICAM-1 receptor group 5),KB,neutral red,0.008 µM
CN(C)c1nc(C(F)(F)F)nc2c1ncn2Cc1ccc([N+](=O)[O-])cc1,Serotype 1A,M-HELA,plaque count,>4 µM
CSc1nsc(-c2ccc(OCc3ccccc3)cc2)c1C#N,Serotype 9 (group B),HELA-OHIO,cytopathic effect,3 µM
CSc1nsc(-c2ccc(O)cc2)c1C#N,Serotype 39 (group B),HELA-OHIO,cytopathic effect,>10 µM
CCn1c2c(c(=O)c3cc(C(C)C)ccc31)Cc1ccccc1-2,36/342H,HELA-OHIO,cytopathic effect,0.3 µg/mL
Cc1cc(CCCCCOc2c(Cl)cc(C3=NCCO3)cc2Cl)on1,TYPE 78,HeLa,plaque count,0.012 µg/mL
CN(C)c1nc(C(F)(F)F)nc2c1ncn2Cc1ccc(Cl)c(N)c1,Serotype 19,M-HELA,plaque count,>8 µM
CSc1nsc(-c2ccc(OCCOc3ccc(C#N)cc3)cc2)c1C#N,Serotype 63 (group B),HELA-OHIO,cytopathic effect,>2 µM
CSc1nsc(-c2ccccc2)c1C#N,Serotype 89 (group B),HELA-OHIO,cytopathic effect,>80 µM
CN(C)c1nc(C(F)(F)F)nc2c1ncn2Cc1ccc(F)cc1,Serotype 1B,M-HELA,plaque count,0.05 µM

ECn: concentration that inhibits the pathogen or its effect by n%.